Pooled drug test results. Numbers come from NIAID ChemDB, via PubChem.

All rows: growth or infection tests; organism: HIV-1; cell line: PBL; read-out: inhibition

Rows are shuffled and stem from different studies.

| smiles | strain | read by | setting | tested at | result |
|---|---|---|---|---|---|
| O=C(O)P(=O)(O)O | IIIB | RT activity | 21 d | 128 µM | 87% |
| Cc1cn([C@H]2C[C@H](N=[N+]=[N-])[C@@H](CO)O2)c(=O)[nH]c1=O | IIIB | p24 | - | 1 µM | 100% |
| Cc1cn([C@H]2C[C@H](N=[N+]=[N-])[C@@H](CO)O2)c(=O)[nH]c1=O | JR-CSF | - | - | 1 µM | 95% |
| Cc1cn([C@H]2C[C@H](N=[N+]=[N-])[C@@H](COP(=O)(O)OC[C@H]3OC(O)[C@H](O)[C@@H](O)[C@@H]3O)O2)c(=O)[nH]c1=O | LAV-Bru | RT activity | 7 d | 1 µM | 94% |
| CC(C)C[C@H](NC(=O)[C@H](Cc1ccccc1)NC(=O)CNC(=O)CNC(=O)[C@@H](N)Cc1ccc(O)cc1)C(=O)N[C@@H]1[C@@H](O)[C@H](O)[C@@H](CO)O[C@H]1O | - | syncytia / RT activity | - | 100 µM | 28% |
| Cc1cn([C@H]2C[C@H](N=[N+]=[N-])[C@@H](COP(=O)(O)OC[C@H]3OC(O)[C@@H](O)[C@@H](O)[C@@H]3O)O2)c(=O)[nH]c1=O | LAV-Bru | RT activity | 7 d | 25 µM | 94% |
| CN=C1CN=C(c2ccc[nH]2)c2cc(Cl)ccc2N1 | N1T | p24 | - | 3 µM | 90% |
| CC(C)C[C@H](NC(=O)[C@H](Cc1ccccc1)NC(=O)CNC(=O)CNC(=O)[C@@H](N)Cc1ccc(O)cc1)C(=O)NC[C@H]1OC(O)[C@H](O)[C@@H](O)[C@@H]1O | - | syncytia / RT activity | - | 100 µM | 16% |
| CC[C@H](C)C=C(C)/C=C/C1=CC2=C(Cl)C(=O)[C@](C)(O)[C@H](CC(C)=O)C2=CO1 | - | p24 | - | 25 µM | ~90% |
| C#Cc1c(C(N)=O)ncn1[C@@H]1O[C@H](CO)[C@@H](O)[C@H]1O | IIIB | p24 | - | 0.5 µM | 0% |
| CC(C)C[C@H](NC(=O)[C@H](Cc1ccccc1)NC(=O)CNC(=O)CNC(=O)[C@@H](N)Cc1ccc(O)cc1)C(=O)N[C@@H]1O[C@H](CO)[C@@H](O)[C@H](O)[C@H]1O | - | syncytia / RT activity | - | 100 µM | 25% |
| COc1cc(C[C@H]2C(=O)OC[C@@H]2Cc2ccc(OC)c(OC)c2)ccc1O | IIIB | p24 | - | 0.3 µg/mL | 90% |
| CCCCCCCCCCCCCCCCOP(=O)(OC[C@H]1OC(O)[C@H](O)[C@@H](O)[C@@H]1O)OC[C@H]1O[C@@H](n2cc(C)c(=O)[nH]c2=O)C[C@@H]1N=[N+]=[N-] | LAV-Bru | RT activity | 7 d | 25 µM | 91% |
| CC(C)C[C@H](NC(=O)[C@H](Cc1ccccc1)NC(=O)CNC(=O)CNC(=O)[C@@H](N)Cc1ccc(O)cc1)C(=O)OC[C@@H](O)[C@@H](O)[C@H](O)[C@@H](O)C=O | - | syncytia / RT activity | - | 100 µM | 28% |

Repeating the first 2 entries:

smiles	strain	read by	setting	tested at	result
O=C(O)P(=O)(O)O	IIIB	RT activity	21 d	128 µM	87%
Cc1cn([C@H]2C[C@H](N=[N+]=[N-])[C@@H](CO)O2)c(=O)[nH]c1=O	IIIB	p24	-	1 µM	100%

Percent inhibition refers to the dose given; in toxicity tests it is the harm to the cells. Blank or dashed fields: not listed here.